Assay results reported in patent US20080076824A1, “Compounds That Inhibit Replication Of Human Immunodeficiency Virus” (priority 2004, published 2008).

Tests used:
[1] = tested on: Vero cell cultures; conditions: African green monkey
[2] = tested on: HEL cell cultures; conditions: human
[3] = tested on: HeLa cell cultures; conditions: human

Measured: Minimum cytotoxic concentration

NC(=O)c1ncn([C@@H]2O[C@H](CO)[C@@H](O)[C@H]2O)n1 [Ribavirin]
>400 µg/mL: all assays above
